Results on 2 compounds are retold here after patent publication US5441983A, “Treatment of infection by enveloped virus with calix(N)arene compounds” (Genelabs Incorporated, priority 1992, dated 1995).

This assay has as its system drug-resistant strains of HSV-1 and HSV-2. The experiment in a line: Inhibition of viral yield, drug-resistant versus wildtype strains (summary). To be noted: ID90 comparison, in words.

`Nc1nc2c(ncn2COCCO)c(=O)[nH]1` [ACV, acyclovir, reference compound]: the “activity against drug-resistant strains compared with wildtype” value was “significant resistance”. For `Nc1nc(O)c2ncn(COC(CO)CO)c2n1` [DHPG, ganciclovir], the “activity against drug-resistant strains compared with wildtype” value is “significant resistance”.
